Laboratory results as given in patent US20030100094.
The exact form of at least one protein or probe is not confirmed.

Amino acid sequences for entries named in this document (tags omitted). Residues count along the entry.
UniProt P00642, 2-277: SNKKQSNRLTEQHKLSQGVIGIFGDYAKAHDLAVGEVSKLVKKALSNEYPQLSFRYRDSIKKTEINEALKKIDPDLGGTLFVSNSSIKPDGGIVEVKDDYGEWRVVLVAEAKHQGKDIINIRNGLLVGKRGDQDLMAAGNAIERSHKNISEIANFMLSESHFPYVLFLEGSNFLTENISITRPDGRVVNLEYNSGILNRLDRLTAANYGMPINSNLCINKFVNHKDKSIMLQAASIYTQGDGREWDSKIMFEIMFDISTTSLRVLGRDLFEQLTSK

Target: EcoRI (UniProt P00642)
Test: enzyme reaction in vitro
Settings: control, single EcoRI site linearised; purified recombinant protein; protein details: NEB R0101; only the site is given

For “CCTCAGC (double strand) [supercoiled pUB plasmid (two BbvCI sites, one EcoRI site)]”, the “activity on this sequence” value was “active”.
